Measured values from several laboratories, pooled; numbers as filed in NIAID ChemDB.

An empty or dashed field is not shown. ECn is the concentration giving n% inhibition of infection, replication or growth. ICn: concentration for n% inhibition. Conditions beyond the fields shown may differ between rows. Percent inhibition refers to the dose given; in toxicity tests it is the harm to the cells.

SMILES | kind | agent | strain | cells | protein | measure | tested at | value
Clc1ccc2c(c1)C=C(c1ccc(Br)cc1)CO2 | culture | Poliovirus | SABIN (TYPE 2) | HEP-2 | - | inhibition | 10 µM | 5%
CC(C)N(CCCO)C(=O)N1CC(N)C(C(=O)O)C1 | target | Influenza A virus | A/TOKYO/67 | - | Neuraminidase | IC50 | - | 2.1 µM
O=C(N[C@@H](Cc1ccc(O)c(O)c1)C(=O)O)c1ccc2c(c1)nc(-c1ccoc1)n2C1CCCCC1 | target | Poliovirus | - | - | RNA-dependent RNA polymerase | IC50 | - | >25 µM
CCCCCCCCCCCCCCCCCC(=O)OC[C@@H](COP(=O)(O)OCCNCCO[C@@]1(C(=O)O)O[C@@H]([C@H](O)[C@H](O)CO)[C@H](NC(C)=O)[C@@H](O)[C@H]1F)OC(=O)CCCCCCCCCCCCCCCCC | target | Influenza A virus | H9N2 A/DUCK/HK/86/76 | - | Sialidase | IC50 | - | 180 µM
Clc1ccc2c(c1)C=C(c1ccccc1)CO2 | culture | Poliovirus | IB (TYPE 2) | HEP-2 | - | EC50 | - | <10 µM
O=C(N[C@H](C(=O)O)c1c[nH]c2ccc(O)cc12)c1ccc2c(c1)nc(-c1ccc(O)cc1O)n2C1CCCCC1 | target | Poliovirus | - | - | RNA-dependent RNA polymerase | IC50 | - | >25 µM
Clc1ccc(C2=Cc3cc(Cl)ccc3OC2)cc1 | culture | Poliovirus | SABIN (TYPE 2) | HEP-2 | - | EC50 | - | >10 µM
COc1ccc(C(NC(=O)c2ccc3c(c2)nc(-c2ccccn2)n3C2CCCCC2)C(C)C)cc1OC | target | Poliovirus | - | - | RNA-dependent RNA polymerase | IC50 | - | >25 µM
Nc1ccn(C[C@@H](CO)OCP(=O)(O)O)c(=O)n1 | culture | Variola virus | Isolate V68059 | VERO | - | EC50 | - | 13 µg/mL
O=C(NC(Cc1c[nH]c2ccc(O)cc12)C(=O)O)c1ccc2c(c1)nc(-c1ccoc1)n2C1CCCCC1 | target | Poliovirus | - | - | RNA-dependent RNA polymerase | IC50 | - | >25 µM
CC(C)(C)OC(=O)N1CC(N)C(C(=O)O)C1 | target | Influenza A virus | A/TOKYO/67 | - | Neuraminidase | Ki | - | 58 µM
Clc1ccc(C2COc3ccccc3C2)cc1 | culture | Poliovirus | IA (TYPE 2) | HEP-2 | - | EC50 | - | >10 µM
CC(=O)NC(CC(C)C)C1NC(C(=O)[O-])CC1N | target | Influenza A virus | A/TOKYO/67 | - | Neuraminidase | IC50 | - | 6.2 µM
CC(NC(=O)c1ccc2c(c1)nc(-c1ccoc1)n2C1CCCCC1)C(=O)O | target | Poliovirus | - | - | RNA-dependent RNA polymerase | IC50 | - | >25 µM
Nc1ncnc2c1ncn2[C@@H]1C=C(CO)[C@@H](O)[C@H]1O | culture | Monkeypox virus | MPX | MK2 | - | EC50 | - | 0.26 µg/mL
N=c1c2ncn([C@@H]3O[C@H](CO)[C@@H](O)[C@H]3O)c2ncn1OCc1cc(F)cc(F)c1 | culture | Variola virus | Isolate Yamada | LLC-MK2 | - | EC50 | - | >100 µg/mL
O=C(O)/C=C/c1ccc(CN2CCC(NC(=O)c3ccc4c(c3)nc(-c3ccoc3)n4C3CCCCC3)CC2)cc1 | target | Poliovirus | - | - | RNA-dependent RNA polymerase | IC50 | - | >25 µM
CC(=O)NCC1C(N)C(C(=O)O)CN1C(=O)N(C)C | target | Influenza A virus | A/TOKYO/67 | - | Neuraminidase | Ki | - | 260 µM
O=c1[nH]cnc2c1ncn2[C@@H]1C=C(CO)[C@@H](O)[C@H]1O | culture | Monkeypox virus | MPX | MK2 | - | EC50 | - | >100 µg/mL
CCCCCCCCCCCCC/C=C/[C@@H](O)[C@H](CO[C@@H]1O[C@H](CO)[C@H](O)[C@H](OS(=O)(=O)O)[C@H]1O)NC(=O)CCCCCCCCCCCCCCCCCCCCCCC | target | Influenza A virus | H3N8 A/duck/Hokkaido/8/80 | - | Sialidase | inhibition | 200 µM | 39.2%
Nc1ccn(C[C@H]2COP(=O)(O)CO2)c(=O)n1 | culture | Variola virus | Isolate Garcia | VERO | - | EC50 | - | 4 µg/mL
CC(C)n1c(-c2ccoc2)nc2cc(C(=O)N[C@@H](Cc3c[nH]c4ccc(OCC(=O)O)cc34)C(=O)O)ccc21 | target | Poliovirus | - | - | RNA-dependent RNA polymerase | IC50 | - | >25 µM
CCCCCCCCCCCCCCCCCC(=O)OC[C@@H](COP(=O)(O)OCCNCCO[C@@]1(C(=O)O)O[C@@H]([C@H](O)[C@H](O)CO)[C@H](NC(C)=O)[C@@H](O)[C@H]1F)OC(=O)CCCCCCCCCCCCCCCCC | target | Influenza A virus | H7N2 A/DUCK/47/5/76 | - | Sialidase | IC50 | - | 200 µM
CC(C)n1c(-c2ccoc2)nc2cc(C(=O)N[C@@H](Cc3c[nH]c4ccc(O)cc34)C(N)=O)ccc21 | target | Poliovirus | - | - | RNA-dependent RNA polymerase | IC50 | - | >25 µM
c1ccc(C2COc3ccccc3C2)cc1 | culture | Poliovirus | IA (TYPE 2) | HEP-2 | - | EC50 | - | <10 µM
CC(CC(=O)Nc1cccc(/C=C/C(=O)O)c1)NC(=O)c1ccc2c(c1)nc(-c1ccoc1)n2C1CCCCC1 | target | Poliovirus | - | - | RNA-dependent RNA polymerase | IC50 | - | >25 µM
CCC(CC)CC(NC(C)=O)C1NC(C(=O)O)CC1C(=O)OC | target | Influenza A virus | A/TOKYO/67 | - | Neuraminidase | IC50 | - | 0.0008 µM

The last 4 rows once more:

SMILES	kind	agent	strain	cells	protein	measure	tested at	value
CC(C)n1c(-c2ccoc2)nc2cc(C(=O)N[C@@H](Cc3c[nH]c4ccc(O)cc34)C(N)=O)ccc21	target	Poliovirus	-	-	RNA-dependent RNA polymerase	IC50	-	>25 µM
c1ccc(C2COc3ccccc3C2)cc1	culture	Poliovirus	IA (TYPE 2)	HEP-2	-	EC50	-	<10 µM
CC(CC(=O)Nc1cccc(/C=C/C(=O)O)c1)NC(=O)c1ccc2c(c1)nc(-c1ccoc1)n2C1CCCCC1	target	Poliovirus	-	-	RNA-dependent RNA polymerase	IC50	-	>25 µM
CCC(CC)CC(NC(C)=O)C1NC(C(=O)O)CC1C(=O)OC	target	Influenza A virus	A/TOKYO/67	-	Neuraminidase	IC50	-	0.0008 µM